Anti-infective test results gathered from many reports (values: NIAID ChemDB through PubChem).

All rows: growth or infection tests; agent: Plasmodium falciparum; endpoint: EC50

Lines come from different laboratories, so protocols vary.

| compound | strain or isolate | changes | method | setting | result |
|---|---|---|---|---|---|
| CC(C)CN1C(=O)[C@H](NC(=O)CCNc2ccnc3cc(Cl)ccc23)[C@@H]1/C=C/c1ccccc1 | W2 | Chloroquine-resistant | flow cytometry | - | 0.5653 µM |
| NC(=S)N/N=C/c1ccccc1 | Dd2 | - | LDH | - | >10 µg/mL |
| N=C(N)c1ccc(OCCCCCOc2ccc(C(=N)N)cc2Cl)c(Cl)c1 | D6 | - | hypoxanthine uptake | - | 0.08 µM |
| NC(=S)N/N=C/c1ccc(Cl)cc1 | NF54 | - | LDH | - | >10 µg/mL |
| CCCCCCCCCCCCCCCC#CC(=O)O | K1 | - | - | - | 21.7 µM |
| COc1cc(OC)c(OC)cc1/C=C/C=C/C(=O)c1ccc2ccccc2c1 | INDO | - | SYBR Green / fluorescence | - | 31 µM |
| CCCCCCCCCCCC(=O)NC(CCCC[NH3+])C(=O)NCCCCCCCC(=O)NC(CCCC[NH3+])C(=O)NCCCCCCCC(=O)NC(CCCC[NH3+])C(=O)NCCCCCCCC(=O)NC(CCCC[NH3+])C(N)=O | FCR3 | - | hypoxanthine uptake | - | 1.2 µM |
| N=C(N)c1ccc(NCCCCCNc2ccc(C(=N)N)cc2)cc1 | W2 | - | hypoxanthine uptake | - | 0.045 µM |
| O=C(/C=C/C=C/c1ccc2c(c1)OCO2)c1ccc(Cl)c(Cl)c1 | 3D7 | - | SYBR Green / fluorescence | - | 50 µM |
| CN1CCN(C(=O)n2cc(-c3ccnc(N)n3)c3cc(Br)ccc32)CC1 | D6 | - | LDH | - | >14.43 µM |
| CCN(CC)CCCC(C)Nc1ccnc2cc(Cl)ccc12 | NF54 | - | - | - | 0.011 µM |
| c1ccc(CNC23OC4C5C2C2C5C56CC25C3C46)cc1 | Dd2 | - | LDH / absorbance | - | >2 µM |
| CCN(CC)CCCC(C)Nc1ccnc2cc(Cl)ccc12 | KAE609R-2 | KAE609-resistant pfatp4 T418N/P990R | SYBR Green / fluorescence | - | 0.013 µM |
| CCCCCCCC(=O)NC(CCCC[NH3+])C(=O)NCCCCCCCC(=O)NC(CCCC[NH3+])C(=O)NCCCCCCCC(=O)NC(CCCC[NH3+])C(N)=O | FCR3 | - | hypoxanthine uptake | - | 2.7 µM |
| C=C(C)C1CC[C@]2(C(=O)O)CC[C@@]3(C)[C@]4(C)CC[C@H]5C(C)(C)[C@@H](OC(=O)/C=C\c6ccc(O)cc6)CC[C@]5(C)[C@H]4CC[C@]3(C)[C@@H]12 | D10 | - | LDH | - | 10.4 µM |
| Clc1cccc(CC[C@H]2C[C@H]3CCC[C@H]4C[C@@H](CCc5cccc(Cl)c5)NC(=N2)N34)c1 | D6 | - | LDH | - | 1.25 µM |
| Cc1ccc(-n2cc(C=O)c(-c3ccccc3)n2)cc1 | RKL9 | - | - | - | 0.051 µM |
| NCCCCCCCCCCCC(=O)NC(CCCC[NH3+])C(=O)NCCCCCCCCCCCC(=O)NC(CCCC[NH3+])C(N)=O | FCR3 | - | hypoxanthine uptake | - | 21 µM |
| Cc1c(-c2ccc(-c3ccc(OC(C)(C)C)cc3)nc2)[nH]c2ccccc2c1=O | 3D7 | - | SYBR Green | - | 0.054 µM |
| CCN(CC)CCCC(C)Nc1ccnc2cc(Cl)ccc12 | Dd2 | - | - | 48 h | 0.1 µg/mL |
| C[C@H]1Cc2c([nH]c3cc(Cl)c(F)cc23)[C@@]2(N1)C(=O)Nc1ccc(Cl)cc12 | Dd2 (CM1) | Multidrug-resistant | SYBR Green / fluorescence | - | 0.000671 µM |
| COc1ccc2c(c1)C(O)(c1ccccc1)C(N)=N2 | 3D7 | - | - | - | 0.024 µM |
| Cc1cccc(CCC2CC3CCCC4CC(C)NC(=N2)N34)c1 | D6 | - | LDH | - | 5.78 µM |
| N=C(N)c1ccc(NCCCCCNc2ccc(C(=N)N)cc2[N+](=O)[O-])c([N+](=O)[O-])c1 | D6 | - | hypoxanthine uptake | - | 0.109 µM |
| COc1cc2c(NC3CCN(C)CC3)nc(N3CCCN(C)CC3)nc2cc1OCc1ccccc1 | W2 | - | fluorescence | - | 0.116 µM |
| Cc1ccc(N2C(=O)[C@H](NC(=O)CNc3ccnc4cc(Cl)ccc34)[C@@H]2/C=C/c2ccccc2)cc1 | W2 | Chloroquine-resistant | flow cytometry | - | 0.4827 µM |
| N=C(N)c1ccc(OCCOc2ccc(C(=N)N)cc2[N+](=O)[O-])c([N+](=O)[O-])c1 | D6 | - | hypoxanthine uptake | - | 1.092 µM |
| C[C@H]1CCc2c([nH]c3ccccc23)[C@@]2(N1)C(=O)Nc1ccc(Cl)cc12 | KAE678R-3 | KAE678-resistant (I203M/I263V) | SYBR Green / fluorescence | - | 0.291 µM |
| OCCN1CCN(C(c2ccccc2)c2ccccc2)CC1 | Dd2 | - | SYBR Green / fluorescence | - | >2.5 µM |
| O=C(/C=C/C=C/c1ccc2c(c1)OCO2)c1ccc(Br)cc1 | INDO | - | SYBR Green / fluorescence | - | 73 µM |
| O=C(CNc1ccnc2cc(Cl)ccc12)N[C@H]1C(=O)N(c2ccc(F)cc2)[C@H]1/C=C/c1ccccc1 | W2 | Chloroquine-resistant | flow cytometry | - | 0.4009 µM |
| Cc1cccc(CC[C@H]2C[C@H]3CCC[C@H]4C[C@@H](CCc5cccc(C)c5)NC(=N2)N34)c1 | W2 | - | LDH | - | 2.26 µM |
| CNC(=O)CCCC(=O)N[C@@H](CC(C)C)C(=O)N[C@@H](CC(C)C)C(=O)NCC(=O)CNC(=O)[C@H](CC(C)C)NC(=O)[C@H](CC(C)C)NC(=O)c1ccc(C(=O)c2ccccc2)cc1 | - | - | - | - | 1.5 µM |
| NCCCCCCCCCCCC(=O)NC(CCCC[NH3+])C(=O)NCCCCCCCCCCCC(=O)NC(CCCC[NH3+])C(=O)NCCCCCCCCCCCC(=O)NC(CCCC[NH3+])C(N)=O | FCR3 | - | hypoxanthine uptake | - | 1.4 µM |
| O=C(CNc1ccnc2cc(Cl)ccc12)N[C@H]1C(=O)N(C2CCCCC2)[C@H]1/C=C/c1ccccc1 | W2 | Chloroquine-resistant | flow cytometry | - | 0.5703 µM |
| Cc1ccc(-n2cc(C(=O)O)c(-c3ccccc3)n2)cc1 | RKL9 | - | - | - | 0.036 µM |
| C=CCOc1ccc(-c2cc(-c3ccc(Cl)cc3)nc(N)n2)cc1OC | 3D7 | - | SYBR Green | - | >50 µM |
| Cc1ccc(C(C)C)cc1.NC(=S)N/N=C/c1ccccc1.[Cl][Ru+] | NF54 | - | LDH | - | 10.7 µM |
| COc1cc(C2=NCCN2)ccc1OCCCCCOc1ccc(C2=NCCN2)cc1OC | W2 | - | hypoxanthine uptake | - | 0.066 µM |
| CC(C)CC1(O)C(N)=Nc2ccc(Cl)cc21 | 3D7 | - | - | - | 0.232 µM |
| COCCn1cc(-c2ccnc(N)n2)c2cc(Br)ccc21 | W2 | - | LDH | - | >14.49 µM |
| NC1=Nc2cccc(Br)c2C1(O)Cc1ccccc1 | Dd2 | - | - | - | >5 µM |
| O=C(/C=C/C=C/c1ccc2c(c1)OCO2)c1ccc(Cl)cc1 | 3D7 | - | SYBR Green / fluorescence | - | 50 µM |
| c1cc(C2=NCCN2)ccc1OCCCCCOc1ccc(C2=NCCN2)cc1 | W2 | - | hypoxanthine uptake | - | 0.548 µM |
| COc1ccc(/C=C/C=C/C(=O)c2ccc(OC)cc2)cc1 | 3D7 | - | SYBR Green / fluorescence | - | 22.5 µM |
| N=C(N)c1ccc(OCCCOc2ccc(C(=N)N)cc2N)c(N)c1 | W2 | - | hypoxanthine uptake | - | 0.175 µM |
| CC1(C)C2CC=C3C(CC[C@@]4(C)C5C[C@](C)(C(=O)O)CC[C@]5(C)CC[C@]34C)[C@@]2(C)CCC1(O)O | FCM29 | CQ-resistant | SYBR Green | - | 5.2 µM |
| CCCCCCCCCCCC(=O)NC(CCCC[NH3+])C(=O)NCCCC(=O)NC(CCCC[NH3+])C(=O)NCCCC(=O)NC(CCCC[NH3+])C(N)=O | NF54 | - | hypoxanthine uptake | - | >10 µM |
| NC1=Nc2ccc([N+](=O)[O-])cc2C1(O)c1ccccc1 | Dd2 | - | - | - | >5 µM |
| O=C(/C=C/C=C/c1ccc(Cl)cc1)c1ccc(Br)cc1 | INDO | - | SYBR Green / fluorescence | - | 25 µM |
| C[C@H](NC(=O)[C@H](Cc1ccccc1)C[C@@H](O)[C@H](Cc1ccccc1)NC(=O)OC(C)(C)C)C(=O)N[C@@H]1C(=O)N(C)c2ccccc2-c2ccccc21 | - | - | - | - | 0.017 µM |
| CCC[C@H]1O[C@@H]2CC(=O)O[C@@H]2C2=C1C(=O)c1c(O)cccc1C2=O | Dd2 | - | SYBR Green | - | 0.8 µM |
| C=C(C)C1CC[C@]2(C(=O)O)CC[C@@]3(C)[C@]4(C)CC[C@H]5C(C)(C)[C@@H](OC(C)=O)CC[C@]5(C)[C@H]4CC[C@]3(C)[C@@H]12 | D10 | - | LDH | - | >200 µM |
| NC1=Nc2ccc(Cl)cc2C1(O)c1cccc2ccccc12 | 3D7 | - | - | - | 0.03 µM |
| CCOc1ccccc1C(=O)n1cc(-c2ccnc(N)n2)c2ccccc21 | W2 | - | LDH | - | >14.49 µM |
| Cc1ccc(C(C)C)cc1.NC(=S)N/N=C/c1ccc(Cl)cc1.[Cl][Ru+] | NF54 | - | LDH | - | 2.9 µM |
| C=CCOc1ccc(/C=C/C2C(=O)OC(C)(C)OC2=O)cc1OC | 3D7 | - | SYBR Green | - | >100 µM |
| CCCCCC(=O)CCCCCC(=O)NC(CCCC[NH3+])C(=O)NC(CCCC[NH3+])C(=O)NCCCCCCCCCCCC(=O)NC(CCCC[NH3+])C(N)=O | NF54 | - | hypoxanthine uptake | - | >10 µM |
| CCN(CC)CCCC(C)Nc1ccnc2cc(Cl)ccc12 | D10 | - | LDH | - | 0.02 µM |
| COc1ccc(/C=C/C(=O)c2ccc(Cl)cc2)c(OC)c1OC | Dd2 | - | SYBR Green / fluorescence | - | 6.8 µM |
| C=CCCC1CC2CCCC3CC(C)NC(=N1)N23 | D6 | - | LDH | - | 19.27 µM |
| CCC1OC(O)(C(C)(O)C(=O)N[C@@H]2C(=O)N3NCCC[C@@H]3C(=O)N(O)[C@@H](COC)C(=O)N3NCC(OC4CC(OC)C(OC5CC(OC)C(O)C(C)O5)C(C)O4)=CC3C(=O)N3CC[C@@H](O)[C@H]3C(=O)N(O)[C@@H](CC)C(=O)O[C@H]2C(C)C)CCC1C(=O)C(C)(O)CC | Dd2 | MDR | absorbance | - | 0.007 µM |
| N=C(N)c1ccc(OCCOc2ccc(C(=N)N)cc2N)c(N)c1 | W2 | - | hypoxanthine uptake | - | 2.629 µM |
| CCCC[C@@H]1C[C@@H]2CC[C@@H]3C[C@H](CCCC)NC(=N1)N32 | W2 | - | LDH | - | 7.22 µM |

For reference, 5 entries again:

compound,strain or isolate,changes,method,setting,result
CCN(CC)CCCC(C)Nc1ccnc2cc(Cl)ccc12,KAE609R-2,KAE609-resistant pfatp4 T418N/P990R,SYBR Green / fluorescence,-,0.013 µM
NC1=Nc2ccc([N+](=O)[O-])cc2C1(O)c1ccccc1,Dd2,-,-,-,>5 µM
Cc1ccc(-n2cc(C=O)c(-c3ccccc3)n2)cc1,RKL9,-,-,-,0.051 µM
CCCCCC(=O)CCCCCC(=O)NC(CCCC[NH3+])C(=O)NC(CCCC[NH3+])C(=O)NCCCCCCCCCCCC(=O)NC(CCCC[NH3+])C(N)=O,NF54,-,hypoxanthine uptake,-,>10 µM
CCCCCCCCCCCCCCCC#CC(=O)O,K1,-,-,-,21.7 µM

An empty or dashed field is not shown. ECn: concentration that inhibits the pathogen or its effect by n%.